{"source": "paper PMC9312377", "experiment_in_all_cases": "Modified thermofluor assay, BXA-rPAN thermal stabilization", "key": {"[1]": {"target": "recombinant A(H1N1)pdm09 PAN I38T (Influenza A virus, UniProt C3W5S0, DEL51-57/DEL61-72/E59G/I38T)", "settings": "for SYPRO Orange signal: 37uM BXA"}, "[2]": {"system": "recombinant A(H3N2) PAN E23K+I38T"}, "[3]": {"system": "recombinant A(H3N2) PAN E23G+I38T"}, "[4]": {"system": "recombinant A(H3N2) PAN E23G"}, "[5]": {"target": "recombinant A(H1N1)pdm09 PAN E23K+I38T (Influenza A virus, UniProt C3W5S0, DEL51-57/DEL61-72/E23K/E59G/I38T)", "settings": "37uM BXA"}}, "note": "“And” between values parts separate entries of the source, which are not always exact repeats. Identical values can stand only once.", "data": [{"smiles": "O=C1c2c(O)c(=O)ccn2N([C@@H]2c3ccccc3SCc3c2ccc(F)c3F)[C@@H]2COCCN12", "values": [{"measurement": "SYPRO Orange signal", "setting": "[1]; 30 °C", "value": "1299.91 RFU and 851.818 RFU and 903.99 RFU"}, {"measurement": "SYPRO Orange signal", "setting": "[1]; 31 °C", "value": "1564.82 RFU and 1263.46 RFU and 787.996 RFU"}, {"measurement": "SYPRO Orange signal", "setting": "[1]; 49 °C", "value": "2247.52 RFU and 1796.01 RFU and 1136.39 RFU"}, {"measurement": "SYPRO Orange signal", "setting": "[1]; 50 °C", "value": "2001.99 RFU and 1396.33 RFU and 1227.29 RFU"}, {"measurement": "SYPRO Orange signal", "setting": "[1]; 51 °C", "value": "1895.02 RFU and 1693.5 RFU and 1461.08 RFU"}, {"measurement": "SYPRO Orange signal", "setting": "[1]; 52 °C", "value": "2127.88 RFU and 1692.41 RFU and 1501.6 RFU"}, {"measurement": "SYPRO Orange signal", "setting": "[1]; 53 °C", "value": "1957.97 RFU and 1693.1 RFU and 1718.06 RFU"}, {"measurement": "SYPRO Orange signal", "setting": "[1]; 54 °C", "value": "1720.84 RFU and 1802.57 RFU and 1870.42 RFU"}, {"measurement": "SYPRO Orange signal", "setting": "[1]; 55 °C", "value": "1937.37 RFU and 1884.01 RFU and 2066.49 RFU"}, {"measurement": "SYPRO Orange signal", "setting": "[1]; 56 °C", "value": "2073.92 RFU and 2397.82 RFU and 2635.47 RFU"}, {"measurement": "SYPRO Orange signal", "setting": "[1]; 57 °C", "value": "2292.17 RFU and 2452.04 RFU and 2685.19 RFU"}, {"measurement": "SYPRO Orange signal", "setting": "[1]; 58 °C", "value": "2738.53 RFU and 2898.24 RFU and 3062.87 RFU"}, {"measurement": "SYPRO Orange signal", "setting": "[1]; 59 °C", "value": "3318.2 RFU and 3209.02 RFU and 3477.71 RFU"}, {"measurement": "SYPRO Orange signal", "setting": "[1]; 60 °C", "value": "3363.96 RFU and 3668.88 RFU and 3924.88 RFU"}, {"measurement": "SYPRO Orange signal", "setting": "[1]; 61 °C", "value": "3853.39 RFU and 3664.25 RFU and 3834.77 RFU"}, {"measurement": "SYPRO Orange signal", "setting": "[1]; 62 °C", "value": "4836.81 RFU and 4136.99 RFU and 4393.19 RFU"}, {"measurement": "SYPRO Orange signal", "setting": "[1]; 63 °C", "value": "4849.11 RFU and 4511.87 RFU and 4652.86 RFU"}, {"measurement": "SYPRO Orange signal", "setting": "[1]; 64 °C", "value": "5516.71 RFU and 5592.07 RFU and 5143.16 RFU"}, {"measurement": "SYPRO Orange signal", "setting": "[1]; 65 °C", "value": "6729.72 RFU and 6402.93 RFU and 5968.15 RFU"}, {"measurement": "SYPRO Orange signal", "setting": "[1]; 66 °C", "value": "7713.28 RFU and 7718.71 RFU and 6958.89 RFU"}, {"measurement": "Tm (°C) with BXA", "setting": "[1]; A(H1N1)pdm09 PAN I38T 2 μM, BXA 37 μM", "value": "72 °C and 72.0 ± 0.1 °C"}, {"measurement": "ΔTm (°C)", "setting": "[1]; A(H1N1)pdm09 PAN I38T, DMSO vs BXA 37 μM", "value": "17 °C and 16.5 ± 0.3 °C"}, {"measurement": "SYPRO Orange signal", "setting": "[1]; Panel A, I38T, 67 °C", "value": "9597.38 RFU and 10066.3 RFU and 8623.01 RFU"}, {"measurement": "SYPRO Orange signal", "setting": "[1]; Panel A, I38T, 68 °C", "value": "12884 RFU and 13139.6 RFU and 11636.1 RFU"}, {"measurement": "SYPRO Orange signal", "setting": "[1]; Panel A, I38T, 69 °C", "value": "19022.2 RFU and 19552.6 RFU and 17294.2 RFU"}, {"measurement": "SYPRO Orange signal", "setting": "[1]; Panel A, I38T, 70 °C", "value": "31613.6 RFU and 31759.2 RFU and 28793.5 RFU"}, {"measurement": "SYPRO Orange signal", "setting": "[1]; Panel A, I38T, 71 °C", "value": "52366 RFU and 52700 RFU and 47281.7 RFU"}, {"measurement": "SYPRO Orange signal", "setting": "[1]; Panel A, I38T, 72 °C", "value": "83543.3 RFU and 84131.3 RFU and 74463.7 RFU"}, {"measurement": "SYPRO Orange signal", "setting": "[1]; Panel A, I38T, 73 °C", "value": "122437 RFU and 123348 RFU and 108724 RFU"}, {"measurement": "SYPRO Orange signal", "setting": "[1]; Panel A, I38T, 74 °C", "value": "162048 RFU and 162863 RFU and 142896 RFU"}, {"measurement": "SYPRO Orange signal", "setting": "[1]; Panel A, I38T, 75 °C", "value": "190851 RFU and 191513 RFU and 170131 RFU"}, {"measurement": "SYPRO Orange signal", "setting": "[1]; Panel A, I38T, 76 °C", "value": "205077 RFU and 206371 RFU and 185658 RFU"}, {"measurement": "SYPRO Orange signal", "setting": "[1]; Panel A, I38T, 77 °C", "value": "210165 RFU and 210781 RFU and 192634 RFU"}, {"measurement": "SYPRO Orange signal", "setting": "[1]; Panel A, I38T, 78 °C", "value": "209150 RFU and 210784 RFU and 193823 RFU"}, {"measurement": "SYPRO Orange signal", "setting": "[1]; Panel A, I38T, 79 °C", "value": "206694 RFU and 208114 RFU and 190661 RFU"}, {"measurement": "SYPRO Orange signal", "setting": "[1]; Panel A, I38T, 80 °C", "value": "203427 RFU and 205882 RFU and 185759 RFU"}, {"measurement": "SYPRO Orange signal", "setting": "[1]; Panel A, I38T, 81 °C", "value": "199552 RFU and 202668 RFU and 181374 RFU"}, {"measurement": "SYPRO Orange signal", "setting": "[1]; Panel A, I38T, 82 °C", "value": "195514 RFU and 198629 RFU and 177283 RFU"}, {"measurement": "SYPRO Orange signal", "setting": "[1]; Panel A, I38T, 83 °C", "value": "190636 RFU and 194840 RFU and 174255 RFU"}, {"measurement": "SYPRO Orange signal", "setting": "[1]; Panel A, I38T, 84 °C", "value": "185514 RFU and 190246 RFU and 170108 RFU"}, {"measurement": "SYPRO Orange signal", "setting": "[1]; Panel A, I38T, 85 °C", "value": "180418 RFU and 185986 RFU and 165690 RFU"}, {"measurement": "SYPRO Orange signal", "setting": "[1]; Panel A, I38T, 86 °C", "value": "175587 RFU and 181075 RFU and 160644 RFU"}, {"measurement": "SYPRO Orange signal", "setting": "[1]; Panel A, I38T, 87 °C", "value": "170536 RFU and 175966 RFU and 155809 RFU"}, {"measurement": "SYPRO Orange signal", "setting": "[1]; Panel A, I38T, 88 °C", "value": "166059 RFU and 170500 RFU and 150986 RFU"}, {"measurement": "SYPRO Orange signal", "setting": "[1]; Panel A, I38T, 89 °C", "value": "160522 RFU and 165436 RFU and 144826 RFU"}, {"measurement": "SYPRO Orange signal", "setting": "[1]; Panel A, I38T, 90 °C", "value": "156438 RFU and 160598 RFU and 140189 RFU"}, {"measurement": "SYPRO Orange signal", "setting": "[1]; Panel A, I38T, 91 °C", "value": "151733 RFU and 155292 RFU and 131294 RFU"}, {"measurement": "SYPRO Orange signal", "setting": "[1]; Panel A, I38T, 92 °C", "value": "146764 RFU and 150444 RFU and 124391 RFU"}, {"measurement": "SYPRO Orange signal", "setting": "[1]; Panel A, I38T, 93 °C", "value": "141983 RFU and 143209 RFU and 121201 RFU"}, {"measurement": "SYPRO Orange signal", "setting": "[1]; Panel A, I38T, 94 °C", "value": "136042 RFU and 136243 RFU and 110907 RFU"}, {"measurement": "SYPRO Orange signal", "setting": "[1]; Panel A, I38T, 95 °C", "value": "129394 RFU and 133137 RFU and 100413 RFU"}, {"measurement": "SYPRO Orange signal", "setting": "[1]; Panel A, I38T, 96 °C", "value": "124588 RFU and 130001 RFU and 96179.2 RFU"}, {"measurement": "SYPRO Orange signal", "setting": "[1]; Panel A, I38T, 97 °C", "value": "118532 RFU and 123762 RFU and 93689 RFU"}, {"measurement": "SYPRO Orange signal", "setting": "[1]; Panel A, I38T, 98 °C", "value": "113271 RFU and 118019 RFU and 90882.6 RFU"}, {"measurement": "SYPRO Orange signal", "setting": "[1]; Panel A, I38T, 99 °C", "value": "103659 RFU and 109684 RFU and 94215.6 RFU"}, {"measurement": "Tm (°C) with BXA", "setting": "[2]; A(H3N2) PAN E23K+I38T 2 μM, BXA 37 μM", "value": "63 °C and 63.0 ± 0.6 °C"}, {"measurement": "ΔTm (°C)", "setting": "[2]; A(H3N2) PAN E23K+I38T, DMSO vs BXA 37 μM", "value": "14.3 ± 0.4", "unit": "°C"}, {"measurement": "Tm (°C) with BXA", "setting": "[3]; A(H3N2) PAN E23G+I38T 2 μM, BXA 37 μM", "value": "64.2 ± 0.1 °C and 64.2 °C"}, {"measurement": "ΔTm (°C)", "setting": "[3]; A(H3N2) PAN E23G+I38T, DMSO vs BXA 37 μM", "value": "14.0 ± 0.3", "unit": "°C"}, {"measurement": "Tm (°C) with BXA", "setting": "[4]; A(H3N2) PAN E23G 2 μM, BXA 37 μM", "value": "74.3 ± 0.3 °C and 74.3 °C"}, {"measurement": "ΔTm (°C)", "setting": "[4]; A(H3N2) PAN E23G, DMSO vs BXA 37 μM", "value": "23.0 ± 0.2", "unit": "°C"}, {"measurement": "SYPRO Orange signal", "setting": "[5]; 30 °C", "value": "5872.56 RFU and 7879.31 RFU and 8380.31 RFU"}, {"measurement": "SYPRO Orange signal", "setting": "[5]; 31 °C", "value": "6195.71 RFU and 8264.42 RFU and 8953.73 RFU"}, {"measurement": "SYPRO Orange signal", "setting": "[5]; 32 °C", "value": "6505.91 RFU and 8318.23 RFU and 9166.51 RFU"}, {"measurement": "SYPRO Orange signal", "setting": "[5]; 33 °C", "value": "6203.65 RFU and 8455.22 RFU and 8543.86 RFU"}, {"measurement": "SYPRO Orange signal", "setting": "[5]; 34 °C", "value": "6790.53 RFU and 8433.43 RFU and 8964.02 RFU"}]}]}
